Results of unrelated studies side by side (data: NIAID ChemDB).

Common to all: tests on isolated targets; organism: HIV-1; target: Reverse transcriptase; read by: nucleotide incorporation / radiometric; measure: IC50

An empty or dashed field is not shown. ICn is the concentration giving n% inhibition. Neighbouring rows are from separate reports.

smiles | strain or isolate | changes | result
CC(C)=CCC[C@@H](C)C1CC[C@]2(C)CC=C(C=O)C1(C=O)[C@@H]2O | - | - | 10 µM
CCN1c2ncc(COc3cccc4[nH]ccc34)cc2C(=O)N(C)c2ccc(Cl)nc21 | WT | - | <1 µM
CCC1(c2ccc(COc3ccccc3)cc2)Oc2ccccc2-n2cccc2C1=O | - | RT-K103N | 0.4 µM
CC(C)c1c(COC(N)=O)cn(Cc2ccncc2)c1Sc1cc(F)cc(F)c1 | - | - | 0.15 µM
CC(O)/C=C/C=C/C=C\CCCCCCCc1cccc(O)c1O | - | - | 12.58 µM
CCOC(=O)[C@@H](Cc1ccc(O)c(O)c1)OC(=O)/C=C/c1ccc(O)c(O)c1/C=C/c1ccc(O)c(O)c1 | - | - | 56.38 µg/mL
COc1c(OC)c(OC)c(-c2cc(=O)c3c(O)cc(O)cc3o2)c(OC)c1OC | - | - | >200 µg/mL
CC(=O)O[C@H]1C2(C=O)C(C=O)=CC[C@@]1(C)CCC2[C@H](C)CCC=C(C)C | - | - | >100 µM
CCN1c2ncc(Cc3ccccc3)cc2C(=O)N(C)c2cccnc21 | - | RT-Y181C | ~1 µM
COc1cc(C)nc(N2C(=O)CSC2c2c(Cl)cccc2Cl)n1 | - | - | 0.97 µM
Cc1c(Cc2c(Cl)cccc2Cl)nc(SCc2ccc3c(c2)C(=O)c2ccccc2C3=O)[nH]c1=O | - | RT-K103N | >400 µM
Nc1ncnc2c1ncn2[C@@]12C[C@H](O)[C@@H](COP(=O)(O)OP(=O)(O)OP(=O)(O)O)[C@@H]1C2 | - | - | >10 µM
Cc1cc(C)nc(N2C(=O)CSC2c2c(Cl)cccc2Cl)n1 | - | - | 0.87 µM
COc1cc(CSc2nc(Cc3c(Cl)cccc3Cl)c(C)c(=O)[nH]2)cc(OC)c1 | - | RT-181I | >400 µM
CC(C)=CCN1Cc2cccc3[nH]c(=S)n(c23)C[C@@H]1C | - | - | 0.5 µM
CCN1c2ncc(CSc3ccccc3)cc2C(=O)N(C)c2ccc(Cl)nc21 | WT | - | <1 µM
CC(C)=CCc1c2c(c(O)c3c1O[C@@]14C(=C[C@H]5CC1C(C)(C)O[C@]4(CC=C(C)C)C5=O)C3=O)C=CC(C)(C)O2 | - | - | 186.2 µg/mL
O=C(O)CN1C(C(=O)O)C2c3cc4c5c6c3-c3c(cc7c8c3C6C3c6c-5c(cc5ccc9cc(c-8c3c9c65)C7)C4)C2C1C(=O)O | - | - | 0.029 µM
CCN1c2ncc(CCc3cnc4ccccc4c3)cc2C(=O)N(C)c2ccc(F)nc21 | WT | - | <1 µM
C=CC1=C(C)c2cc3[n-]c(cc4[n-]c(cc5nc(cc1n2)C(C)=C5C=C)c(C)c4CCC(=O)O)c(CCC(=O)O)c3C.[Mg+2] | - | - | <15 µM
CCC1(c2ccc(I)cc2)Oc2ccccc2-n2cccc2C1=O | - | RT-V106A | 17.3 µM
Nc1c(S(=O)(=O)O)cc2c3c(cc(S(=O)(=O)O)cc13)C(=O)N(NC(=O)N/N=C/c1ccc(-c3ccc(/C=N/NC(=O)NN4C(=O)c5cc(S(=O)(=O)O)cc6c(N)c(S(=O)(=O)O)cc(c56)C4=O)cc3)cc1)C2=O | - | - | 0.04 µM
CC[C@@]1(c2ccccc2)Oc2cccnc2-n2cccc2C1=O | - | - | >2 µM
CCC1(c2ccc(COc3cccnc3)cc2)Oc2ccccc2-n2cccc2C1=O | - | RT-Y181I | 40 µM
COc1cc(C)nc(N2C(=O)CSC2c2c(F)cccc2Cl)n1 | - | - | 0.85 µM
COc1cc(O)c2c(=O)cc(-c3c(OC)c(OC)c(OC)c(OC)c3OC)oc2c1 | - | - | >200 µg/mL
CCC1(c2cccc(N=[N+]=[N-])c2)Oc2ccccc2-n2cccc2C1=O | WT | - | >100 µM
CC(C)c1c(COC(N)=O)cn(Cc2ccncc2)c1Sc1cccc(Cl)c1 | - | - | 0.28 µM
CC(C)=CCc1c2c(c(O)c3c1O[C@@]14C5C[C@@H](C(=O)[C@@]1(C/C=C(/C)C(=O)O)OC5(C)C)C1OC14C3=O)C=CC(C)(C)O2 | - | - | 101.8 µg/mL
Cc1c(Cc2c(Cl)cccc2Cl)nc(SCc2ccc(C#N)cc2)[nH]c1=O | - | RT-K103N | >400 µM
CC(C)=CCc1c2c(c(O)c3c1O[C@@]14C(=C[C@H]5CC1C(C)(C)O[C@]4(C/C=C(/C)C(=O)O)C5=O)C3=O)C=CC(C)(C)O2 | - | - | 11 µg/mL
Nc1c(S(=O)(=O)[O-])cc2c3c(cc(S(=O)(=O)[O-])cc13)C(=O)N(NC(=O)N/N=C\c1cccc(C=O)c1)C2=O.[Na+].[Na+] | - | - | 2.2 µM
Fc1ccc(Cl)c(C2OCc3nc4ccccc4n32)c1 | IIIB | - | 90 µM
CC(C)c1c(COC(N)=O)cn(Cc2ccncc2)c1Sc1cc(Cl)cc(Cl)c1 | - | - | 0.7 µM
CCC1(c2ccc(CNc3ccccc3)cc2)Oc2ccccc2-n2cccc2C1=O | - | RT-K103N | 2.5 µM
COc1cc(-c2cc(=O)c3c(O)cc(O)cc3o2)c(OC)c(OC)c1OC | - | - | >200 µg/mL
COC(=O)[C@@H](Cc1ccc(O)c(O)c1)OC(=O)/C=C/c1ccc(O)c(O)c1/C=C/c1ccc(O)c(O)c1 | - | - | 50.58 µg/mL
Fc1ccc(F)c(C2OCc3nc4ccccc4n32)c1 | IIIB | - | 57 µM
O=C(/C=C/c1ccc(O)c2c1[C@H](C(=O)O)[C@H](c1ccc(O)c(O)c1)O2)O[C@H](Cc1ccc(O)c(O)c1)C(=O)O | - | - | 43.64 µg/mL
C=CC/C=C\C/C=C\CCCCCCCc1cccc(O)c1O | - | - | 55.36 µM
CC(C)c1c(CO)cn(Cc2ccncc2)c1Sc1cccc(F)c1 | - | - | 0.48 µM
Cc1c(Cc2c(Cl)cccc2Cl)nc(S(=O)(=O)Cc2ccc(Br)cc2)[nH]c1=O | - | RT-K103N | >400 µM
CCN1c2ncc(COc3cc[n+]([O-])c(C)c3)cc2C(=O)N(C)c2ccc(Cl)nc21 | - | RT-Y181C | <1 µM
Cc1c(Cc2c(Cl)cccc2Cl)nc(SCc2cccc(C#N)c2)[nH]c1=O | - | RT-K103N | >400 µM
Cc1csc(NC(=S)N[C@H](C)c2ccccc2)n1 | - | - | 0.8 µM
Nc1ncnc2c1ncn2CCOCP(=O)(O)O | - | - | >500 µM
CCN1c2ncccc2NC(=O)c2cc(CCc3ccccc3)cnc21 | WT | - | <1 µM
CCC(C)Oc1nc(N)cc(S(=O)(=O)c2cccc(C)c2)n1 | IIIB | - | 26.5 µM
CC(C)c1c(CO)cn(Cc2ccncc2)c1Sc1cccc(Cl)c1 | - | - | 0.45 µM
CCN1c2ncc(CO)cc2C(=O)N(C)c2ccc(F)nc21 | - | RT-Y181C | <1 µM
C[C@H]1CN2CCC[C@H]3CCCCC[C@@H]4C(=O)[C@@H](C)CN5CCC[C@@H](CCCCC[C@H](C1=O)[C@@H]32)[C@H]45 | - | - | 10.6 µM
Cc1cc(C)cc(S(=O)(=O)c2c(C(=O)NNCCO)[nH]c3ccc(Cl)cc23)c1 | - | RT-Y181I | 4.6 µM

For reference, 4 entries again:

smiles,strain or isolate,changes,result
CC[C@@]1(c2ccccc2)Oc2cccnc2-n2cccc2C1=O,-,-,>2 µM
Fc1ccc(F)c(C2OCc3nc4ccccc4n32)c1,IIIB,-,57 µM
Cc1c(Cc2c(Cl)cccc2Cl)nc(S(=O)(=O)Cc2ccc(Br)cc2)[nH]c1=O,-,RT-K103N,>400 µM
Cc1csc(NC(=S)N[C@H](C)c2ccccc2)n1,-,-,0.8 µM